Experimental findings from paper PMC10610090, “The Synthetic Peptide GA-Hecate and Its Analogs Inhibit Multiple Steps of the Chikungunya Virus Infection Cycle In Vitro” (Pharmaceuticals, 2023) are described below.

Data set [1] deals with CHIKV-NLuc. The data set is classed as cell-based, Chikungunya virus. Conditions: BHK-21 cells, ratio CC50/EC50.
Data set [2] concerns CHIKV-NLuc. The data set is classed as cell-based, Chikungunya virus. Conditions: Huh-7 cells, ratio CC50/EC50.

Where two headings read alike, the source gives them in different places. Peptide text beside a SMILES is read from it. * marks the point of attachment. Galloyl = O=C(c1cc(O)c(O)c(O)c1)*; X1 = CN(C)c1ccc(C(=O)*)cc1

With `CC(C)C[C@H](NC(=O)[C@H](CCCCN)NC(=O)[C@H](CCCCN)NC(=O)[C@H](CC(C)C)NC(=O)[C@H](C)NC(=O)[C@H](CCCCN)NC(=O)[C@H](CCCCN)NC(=O)[C@H](CC(C)C)NC(=O)[C@H](C)NC(=O)[C@H](CCCCN)NC(=O)[C@H](CC(C)C)NC(=O)[C@H](C)NC(=O)[C@H](CC(C)C)NC(=O)[C@H](C)NC(=O)[C@H](Cc1ccccc1)NC(=O)c1cc(O)c(O)c(O)c1)C(=O)O` [PSSct1905, GA-FALALKALKKALKKL-COOH] (Galloyl-FALALKALKKALKKL-OH), the “SI (selectivity index)” value with CHIKV-NLuc [1] is 6.7; with CHIKV-NLuc [2], 28.9.
For `CC(C)C[C@H](NC(=O)[C@H](C)NC(=O)[C@H](CCCCN)NC(=O)[C@H](CCCCN)NC(=O)[C@H](CC(C)C)NC(=O)[C@H](C)NC(=O)[C@H](CCCCN)NC(=O)[C@H](CCCCN)NC(=O)[C@H](CC(C)C)NC(=O)[C@H](CCCCN)NC(=O)[C@H](CCCCN)NC(=O)[C@H](CC(C)C)NC(=O)[C@H](C)NC(=O)[C@H](CCCCN)NC(=O)[C@H](CCCCN)NC(=O)[C@H](CC(C)C)NC(=O)[C@H](C)NC(=O)[C@H](CCCCN)NC(=O)[C@H](CC(C)C)NC(=O)[C@H](C)NC(=O)[C@H](CC(C)C)NC(=O)[C@H](C)NC(=O)[C@H](Cc1ccccc1)NC(=O)c1ccc(N(C)C)cc1)C(N)=O` [PSSct1910] (X1-FALALKALKKALKKLKKALKKAL-NH2), the “SI (selectivity index)” value was 4.9 with CHIKV-NLuc [1] and 38.5 with CHIKV-NLuc [2].
The like results for `CC(C)C[C@H](NC(=O)[C@H](C)NC(=O)[C@H](CCCCN)NC(=O)[C@H](CCCCN)NC(=O)[C@H](CC(C)C)NC(=O)[C@H](C)NC(=O)[C@H](CCCCN)NC(=O)[C@H](CCCCN)NC(=O)[C@H](CC(C)C)NC(=O)[C@H](CCCCN)NC(=O)[C@H](CCCCN)NC(=O)[C@H](CC(C)C)NC(=O)[C@H](C)NC(=O)[C@H](CCCCN)NC(=O)[C@H](CCCCN)NC(=O)[C@H](CC(C)C)NC(=O)[C@H](C)NC(=O)[C@H](CCCCN)NC(=O)[C@H](CC(C)C)NC(=O)[C@H](C)NC(=O)[C@H](CC(C)C)NC(=O)[C@H](C)NC(=O)[C@H](Cc1ccccc1)NC(=O)c1cc(O)c(O)c(O)c1)C(N)=O` [GA-Hecate] (Galloyl-FALALKALKKALKKLKKALKKAL-NH2) were, in that order, 4.1 and 49.1.
